A mixed list of measured activities; the numbers were collected in NIAID ChemDB.

All rows: tests in culture; organism: Bovine viral diarrhea virus

Neighbouring rows are from separate reports. Blank or dashed fields: not listed here. ECn is the concentration giving n% inhibition of infection, replication or growth.

smiles	read by	strain	measure	cells	value
CC(c1ccccc1)n1ccc2nc(-c3ccccc3)nc-2c1	cytopathic effect	PE515	EC50	MDBK	0.325 µg/mL
Cc1ccc(NC(=S)N=Nc2c(O)n(CN3CCOCC3)c3ccc([N+](=O)[O-])cc23)cc1	cytopathic effect	-	EC50	MDBK	>21 µg/mL
CC(=O)O[C@@H]1C[C@@H](CO)O[C@H]1n1cc(/C(Br)=C\I)c(=O)[nH]c1=O	cytopathic effect	NADL	EC50	MDBK	>100 µM
NCCCCC(N)C(=O)Nc1ccc(-c2ccc(NC(=O)Nc3nc4c(Cl)cccc4s3)nc2)cc1	plaque count	F78I	EC50	MDBK	9.6 µM
C[C@@]1(O)[C@H](O)[C@@H](CO)O[C@H]1n1cnc2c(N(CCO)CCO)ncnc21	virus yield	NADL	EC50	MDBK	>100 µM
CN(N)c1ncnc2c1ncn2[C@@H]1O[C@H](CO)[C@@H](O)[C@@]1(C)O	replicon	NADL	EC50	MDBK	65 µM
O=c1nc(NO)ccn1[C@H]1O[C@@H](CO)[C@H](O)[C@@H]1F	PCR	-	EC90	MDBK	5.4 µM
Nc1nc(=O)n2ccn(C3O[C@H](CO)[C@@H](O)[C@H]3O)c2n1	-	-	EC50	-	>100 µM
Fc1cccc(F)c1Cn1ccc2nc(-c3c(F)cccc3F)nc-2c1	cytopathic effect	PE515	EC50	MDBK	0.24 µg/mL
Nc1ccn([C@@H]2O[C@H](CO)[C@@H](O)[C@H]2F)c(=O)n1	replicon	-	EC90	MDBK	>100 µM
CN[C@H](CC(C)C)C(=O)N[C@H]1C(=O)N[C@@H](CC(N)=O)C(=O)N[C@H]2C(=O)N[C@H]3C(=O)N[C@H](C(=O)N[C@H](C(=O)C(=O)CNOCc4ccc(Cc5ccccc5)cc4)c4cc(O)cc(O)c4-c4cc3ccc4O)[C@H](O[C@H]3C[C@](C)(N)[C@@H](O)[C@H](C)O3)c3ccc(cc3)Oc3cc2cc(c3O[C@@H]2O[C@H](CO)[C@@H](O)[C@H](O)[C@H]2O[C@H]2C[C@](C)(N[NH2+][O-])[C@@H](O)[C@H](C)O2)Oc2ccc(cc2Cl)C1O	cytopathic effect	-	EC50	MDBK	20 µM
O=c1nc(NO)ccn1[C@@H]1O[C@H](CO)[C@@H](O)[C@H]1O	-	-	EC50	MDCK	<5.4 µM
CSc1ccn([C@@H]2O[C@H](CO)[C@@H](O)[C@H]2F)c(=O)n1	PCR	-	EC90	MDBK	>100 µM
COc1ccc(OC)c(OC)c1CNC(=O)c1ccc2cccnc2n1	cytopathic effect	NADL	EC50	WST-1	~1.1 µM
Nc1nc(=O)n2ccn([C@@H]3O[C@H](CO)[C@@H](O)[C@H]3O)c2n1	-	-	EC50	-	31 µM
C[C@@]1(O)[C@H](O)[C@@H](CO)O[C@H]1n1cnc2c(N(N)CCO)ncnc21	virus yield	NADL	EC50	MDBK	<25 µM
C=CCN1C(=O)C(C)S/C1=N/N=C1\C(=O)Nc2ccc([N+](=O)[O-])cc21	cytopathic effect	-	EC50	MDBK	>50 µg/mL
CCOc1ccccc1Nc1ncnc2c1ncn2[C@@H]1O[C@H](CO)[C@@H](O)[C@@]1(C)O	virus yield	NADL	EC50	MDBK	>100 µM
O=C(Nc1ccccc1)c1ccc2cccnc2n1	cytopathic effect	NADL	EC50	WST-1	>8 µM
CC(=O)O[C@H]1C[C@H](n2cc(C#CI)c(=O)[nH]c2=O)O[C@@H]1CO	cytopathic effect	NADL	EC50	MDBK	>100 µM
Nc1ccn([C@@H]2O[C@H](CO)[C@](O)(C(F)(F)F)[C@H]2O)c(=O)n1	-	-	EC50	-	≥100 µM
Brc1ccc(Cn2ccc3nc(-c4ccccc4)nc-3c2)cc1	virus yield	NADL (TYPE 1)	EC50	MDBK	0.074 µM
CON(C)c1ncnc2c1ncn2[C@@H]1O[C@H](CO)[C@@H](O)[C@@]1(C)O	replicon	NADL	EC50	MDBK	9.5 µM
CC(=O)O[C@@H]1[C@H](OC(C)=O)[C@@H](CO)O[C@H]1n1cc(C#CBr)c(=O)[nH]c1=O	cytopathic effect	NADL	EC50	MDBK	>100 µM
C[C@@]1(O)[C@H](O)[C@@H](CO)O[C@H]1n1ccn2c(=O)nc(N)nc12	-	-	EC50	-	>100 µM
Cc1ccc(N2C(=O)CS/C2=N/N=C2\C(=O)Nc3ccc([N+](=O)[O-])cc32)cc1	cytopathic effect	-	EC50	MDBK	>50 µg/mL
CONc1ncnc2c1ncn2[C@@H]1O[C@H](CO)[C@@H](O)[C@@]1(C)O	replicon	NADL	EC50	MDBK	300 µM
O=[N+]([O-])c1ccc2c(c1)c(N=NC(=S)Nc1ccc(Cl)cc1)c(O)n2CN1CCOCC1	cytopathic effect	-	EC50	MDBK	>17 µg/mL
Fc1cccc(F)c1-c1nc2ccn(Cc3ccc(Cl)c(Cl)c3)cc-2n1	cytopathic effect	-	EC50	MDBK	0.061 µg/mL
CONc1ncnc2c1ncn2[C@@H]1O[C@H](CO)[C@@H](O)[C@@]1(C)O	virus yield	NADL	EC50	MDBK	<25 µM
O=C(Nc1ccccn1)c1ccc2cccnc2n1	cytopathic effect	NADL	EC50	WST-1	>8 µM
FC(F)(F)c1cccc(-c2nc3ccn(Cc4ccc(Br)cc4)cc-3n2)c1	cytopathic effect	PE515	EC50	MDBK	0.083 µg/mL
CCCCN1C(=O)CS/C1=N/N=C1\C(=O)Nc2ccc([N+](=O)[O-])cc21	cytopathic effect	-	EC50	MDBK	>50 µg/mL
O=c1ccn([C@@H]2O[C@H](CO)[C@](O)(C(F)(F)F)[C@H]2O)c(=O)[nH]1	-	-	EC50	-	≥100 µM
CC(=O)O[C@@H]1[C@H](OC(C)=O)[C@@H](CO)O[C@H]1n1cc(/C(I)=C\I)c(=O)[nH]c1=O	cytopathic effect	NADL	EC50	MDBK	>100 µM
O=C1Nc2ccc([N+](=O)[O-])cc2/C1=N/N=C1/SCC(=O)N1c1ccc(F)cc1	cytopathic effect	-	EC50	MDBK	>9 µg/mL
COc1cccc(-c2nc3ccn(Cc4ccc(Br)cc4)cc-3n2)c1	cytopathic effect	PE515	EC50	MDBK	0.052 µg/mL
CCCN(CCC)CCSc1nnc2c(n1)[nH]c1ccccc12	plaque count	NADL	EC50	MDBK	0.0006 µM
CNC(=S)N=Nc1c(O)n(CN2CCOCC2)c2ccc([N+](=O)[O-])cc12	cytopathic effect	-	EC50	MDBK	>20 µg/mL

Again, the opening 3 rows:

smiles | read by | strain | measure | cells | value
CC(c1ccccc1)n1ccc2nc(-c3ccccc3)nc-2c1 | cytopathic effect | PE515 | EC50 | MDBK | 0.325 µg/mL
Cc1ccc(NC(=S)N=Nc2c(O)n(CN3CCOCC3)c3ccc([N+](=O)[O-])cc23)cc1 | cytopathic effect | - | EC50 | MDBK | >21 µg/mL
CC(=O)O[C@@H]1C[C@@H](CO)O[C@H]1n1cc(/C(Br)=C\I)c(=O)[nH]c1=O | cytopathic effect | NADL | EC50 | MDBK | >100 µM